Reference: the supplement of paper PMC9931576
Human monoclonal antibodies against the spike receptor-binding domain (heavy:light variable regions). IC50 against pseudoviruses bearing the spike of naturally observed variants; lower = stronger; >10 µg/ml means not reached at the top dose. No active / inactive call. The stated detection limit is 0.0005 µg/ml; values near or below 0.001 µg/ml lie at the floor of the assay.

B1: XGv-412 (protein)
chain 1: QVQLVQSGSELKKPGASVRVSCKASGYNFNSYTMNWVRQAPGQGLEWMGWINTYTGIPTYAQGFTGRFVFSLDTSVTTAFLQISGLKAEDTAVYYCARGMDYDILTGSDHWGQGTLVTVSS
chain 2: DIVMTQSPLSLPVTPGEPATISCRSSQSLLHSNGNNYLDWYLQKPGQSPQLLIYLGSIRASGVPDRFSGSGSGTDFTLKISRVEAVDVGVYYCMQALQTPWTFGQGTKVEIK
B2: XGv-305 (protein)
chain 1: QVQLVESGGGVVQPGRSLRLSCAASGFTFSTYGMHWVRQAPGKGLEWVAVIWNDGSGKLYADSVKGRFTISRDNSKNTLYLQMSSLRAEDTAVYYCARDQGELVTYFDYWGQGTLVTVSS
chain 2: DIQMTQSPSSLSASVGDRVTITCRASQSISRYLNWYQQKPGKAPKLLIYTTSNLQSGVPSRFSGSGSGTDFTLTISSLQLEDFATYYCQQSYSTPSWTFGQGTKVEI
B3: XGv-306 (protein)
chain 1: QVQLVESGGGVVQPGRSLRLSCAASGFTFSTFGMHWVRQAPGKGLEWVAVIWNDGSGKLYADSVKGRFTISRDNSKNTLYLQMSSLRAEDTAVYYCARDQGELVTYFDYWGQGTLVTVSS
chain 2: DIQMTQSPSSLSASVGDRVTITCRASQSISRYLNWYQQKPGKAPKLLIYSASNLQSGVPSRFSGSGSGTDFTLTISSLQPEDFATYYCQQSYSTPSWTFGQGTKVEIK
B4: XGv-405 (protein)
chain 1: EVQLVESGGGLIQPGGSLRLSCVASEIIVSRNYMSWVRQAPGEGLEWVSSIYSGGSTYYGDSVKGRFTISRDSSKNTLYLQMNNVRAEDTAVYYCARDSPHRPGGIWGQGTLVTVSS
chain 2: DIQMTQSPPSLSASVGDRVTITCQASQDINNYLNWYQHKPGKAPKLLIYDASNLEPGVPSRFSGSRSGTDFTFTISSLQPEDIATYFCQQYDNLPCTFGGGTKVEIK
B5: XGv-345 (protein)
chain 1: QVQLQESGPGLVKPSQTLSLTCTVSGGSIRSGSYYWSWIRQPAGKGLEWIGRVYTSGSTNYNPSLKTRVTISLETSKNHFSLKLSSVTAADTAVYYCARGEWEEDFALWGRGTLVTVSS
chain 2: DIQMTQSPSSLSASVGDRVTITCRASQSIASHLNWYQQKPGKAPKLLIYGASTLQSGVPSRFSGSGSGTAFTLTISSVQPEDFATYYCQQSYSAITFGQGTRLEIK
B6: BD57-003 (protein)
chain 1: QVRLVESGGGVVQPGRSLRLSCAASGFTFSNYGIHWVRQAPGKGLEWVAVVSYDGSNKYYADSVKGRFTISRDNSKNTLYLQMNSLRTEDTAVYYCAKGLGELLQYYYGVDVWGQGTTVTV
chain 2: DIQMTQSPSSLSASVGDRVTITCRASQSISYYLNWYQQKPGKAPKLLIYDASSLQSGVPSRFSGGGSGTDFTLTISSLQPEDFATYHCQQNYNTPPTFGQGTKLEIK
B7: XGv-355 (protein)
chain 1: QVQLVQSGSELKKPGASVKVSCKASGYTFTTDAMNWVRQAPGQGLEWMGWINTNTGNPTYAQGFTGRFVFSLDTSVSTAYLQISSLKAEDTAVYYCARGGPPYGSGWYVGGVYYGYGMDVWGQGTTVTVSS
chain 2: QSALTQPASVSGSPGQSITISCTGTSSDVGLYNYVSWYQQHPGKAPKLMIYDVSHRPSGVSNRFSASKSGNTASLTISGLQAEDEADYYCSSYTSSSTLVFGGGTKLTVL
B8: XGv-420 (protein)
chain 1: QVQLQESGPGLVKPSGTLSLTCAVSGGSINSNNWWSWVRQPPGKGLEWIGEIYHNGNTNYNPSLKSRVTISVDTSKNQFSLRLSSVTAADTAVYYCARGDSLDWFDPWGQGTLVTVSS
chain 2: QSALTQPASVSGSPGQSITISCTGTSSDVGSYNYVSWYQQLPGKAPKLMIYDVSNRPSGVSNRFSGSKSGNTASLTISGLQAEDEADYYCSSYTSSSTLVFGTGTKVTVL
B9: XGv-416 (protein)
chain 1: QLQLQESGPGLVKPSETLSLTCTVSGGSISSSDYYWGWIRQPPGKGLEWIGSIYYSGYTYYNPSLKSRVTISVDTSKNQFSLKLRSVTAADTAVYYCARHSGILFYDSSGFDYWGQGTLVTVSS
chain 2: EIVLTQSPGTLSLSPGERASLSCRASQSISSGFLAWYQQKPGQAPRLLIFGASSRATGIPDRFSGSGSGTAFTLTISRLEPEDFAVYYCQQYGTSPLTFGGGTKVEIK
B10: XGv-402 (protein)
chain 1: QVQLVESGGGVVQPGRSLRLSCAASGFTFNNYAMHWVRQAPGKGLEWVAVISYDGSNEFYLDSVKGRFAISRDNSKNTLYLQTNSLRGEDTAVYYCARESRRGADYWGQGTLVTVSS
chain 2: DIQMTQSPSSLSASVGDRVTITCRASQIISNYLNWYQQKPGKAPKLLIYAASSLQSGVPSRFSGSGSGTDFTLTISSLQPEDSATYYCQQSFSPLWTFGPGTKVEIK
B11: XGv-318 (protein)
chain 1: EVQLVESGGGLVQPGGSLRLSCAASGFTFSRYDMHWVRQPTGRGLEWVSSIGTSGDTYYPDSVKGRFTISRENAKNSLYLQMNSLRAGDTAVYFCARGGIVGYTYGNWYFDLWGRGTLVTVSS
chain 2: DIQMTQSPSSLSASVGDRVTITCRASQTISKYLNWYQQKPGKAPKLLIYAASSLQSGVPSRFSGSGSGTDFTLTISGLQPEDFATYYCQQCYSTPPITFGQGTRLEIK
B12: BD57-006 (protein)
chain 1: EVQLLESGGGLVQPGGSLRLSCAASGFTFSNFAMSWVRQAPGKGLEWVSVIYSRGGSSNYADSVKGRFTISRDNSKNTLYLQMNSLRAEDTAVYYCAKLCDSSGYYWVEDAFDIWGQGTMVTVSS
chain 2: QSVLTQPPSASGTPGQRVTISCSGSSSNIGNNYVYWYQQLPGTAPKLLIYKNNERPSGVPDRFSGSKSGTSASLAISGLRSEDEADYYCATWDDSLSGRVFGTGTKVTVL
B13: BD57-012 (protein)
chain 1: QMQLVQSGPEVKKPGTSVKVSCKASGFTFTSSAVQWVRQARGQRLEWIGWIVVGSGNTNYAQKFQERVTISRDESTSTAYMELSSLRSEDTAVYYCAAPYCTGGTCNDGFDIWGQGTLVTVSS
chain 2: EIVLTQSPGTLSLSPGERATLSCRASQSVTSSYLAWYQQKPGQAPRVLIYGASSRATGIPDRFSGSGSGTDFTLTISRLEPEDFAVYYCQQYGRSPWTFGQGTKVEIK

biological target: SARS-CoV-2 Omicron BA.1 spike pseudovirus; experiment: pseudovirus neutralization IC50; higher = weaker neutralization
Protocol: (§1)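 Single-round VSV luciferase pseudovirus mixed with antibody dilutions for 1 h and put on Huh-7 cells for about a day; IC50 from the dose curve.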

Row | Binder | pseudovirus neutralization IC50
1 | B1 | > 10 µg/mL
2 | B2 | > 10 µg/mL
3 | B3 | > 10 µg/mL
4 | B4 | 0.0973 µg/mL
5 | B5 | 0.22 µg/mL
6 | B6 | 0.0398 µg/mL
7 | B7 | > 10 µg/mL
8 | B8 | > 10 µg/mL
9 | B9 | > 10 µg/mL
10 | B10 | > 10 µg/mL
11 | B11 | > 10 µg/mL
12 | B12 | 0.00426 µg/mL
13 | B13 | 0.00601 µg/mL

biological target: SARS-CoV-2 Omicron BA.2 spike pseudovirus; experiment: as above
Protocol: as §1

Row | Binder | pseudovirus neutralization IC50
14 | B1 | > 10 µg/mL
15 | B2 | > 10 µg/mL
16 | B3 | > 10 µg/mL
17 | B4 | 0.0221 µg/mL
18 | B5 | 0.0536 µg/mL
19 | B6 | 0.0394 µg/mL
20 | B7 | > 10 µg/mL
21 | B8 | 0.336 µg/mL
22 | B9 | > 10 µg/mL
23 | B10 | > 10 µg/mL
24 | B11 | > 10 µg/mL
25 | B12 | 0.00205 µg/mL
26 | B13 | 0.00476 µg/mL

biological target: SARS-CoV-2 Omicron BA.2.75 spike pseudovirus; experiment: as above
Protocol: as §1

Row | Binder | pseudovirus neutralization IC50
27 | B1 | > 10 µg/mL
28 | B2 | > 10 µg/mL
29 | B3 | > 10 µg/mL
30 | B4 | 0.0249 µg/mL
31 | B5 | 0.0533 µg/mL
32 | B6 | 0.0641 µg/mL
33 | B7 | > 10 µg/mL
34 | B8 | > 10 µg/mL
35 | B9 | > 10 µg/mL
36 | B10 | 0.146 µg/mL
37 | B11 | > 10 µg/mL
38 | B12 | 0.00283 µg/mL
39 | B13 | 0.000932 µg/mL

biological target: SARS-CoV-2 Omicron BA.5 spike pseudovirus; experiment: as above
Protocol: as §1

Row | Binder | pseudovirus neutralization IC50
40 | B1 | > 10 µg/mL
41 | B2 | > 10 µg/mL
42 | B3 | > 10 µg/mL
43 | B4 | 0.0422 µg/mL
44 | B5 | 0.0884 µg/mL
45 | B6 | 1.17 µg/mL
46 | B7 | > 10 µg/mL
47 | B8 | 0.331 µg/mL
48 | B9 | > 10 µg/mL
49 | B10 | > 10 µg/mL
50 | B11 | > 10 µg/mL
51 | B12 | > 10 µg/mL
52 | B13 | 5.92 µg/mL

biological target: SARS-CoV-2 Omicron BQ.1.1 spike pseudovirus; experiment: as above
Protocol: as §1

Row | Binder | pseudovirus neutralization IC50
53 | B1 | > 10 µg/mL
54 | B2 | > 10 µg/mL
55 | B3 | > 10 µg/mL
56 | B4 | 0.0737 µg/mL
57 | B5 | > 10 µg/mL
58 | B6 | 3.95 µg/mL
59 | B7 | > 10 µg/mL
60 | B8 | > 10 µg/mL
61 | B9 | > 10 µg/mL
62 | B10 | > 10 µg/mL
63 | B11 | > 10 µg/mL
64 | B12 | > 10 µg/mL
65 | B13 | > 10 µg/mL

biological target: SARS-CoV-2 Omicron XBB spike pseudovirus; experiment: as above
Protocol: as §1

Row | Binder | pseudovirus neutralization IC50
66 | B1 | > 10 µg/mL
67 | B2 | > 10 µg/mL
68 | B3 | > 10 µg/mL
69 | B4 | 0.0351 µg/mL
70 | B5 | > 10 µg/mL
71 | B6 | > 10 µg/mL
72 | B7 | > 10 µg/mL
73 | B8 | > 10 µg/mL
74 | B9 | > 10 µg/mL
75 | B10 | > 10 µg/mL
76 | B11 | > 10 µg/mL
77 | B12 | > 10 µg/mL
78 | B13 | > 10 µg/mL

biological target: SARS-CoV-2 early D614G spike pseudovirus; experiment: as above
Protocol: as §1

Row | Binder | pseudovirus neutralization IC50
79 | B1 | 0.0036 µg/mL
80 | B2 | 0.471 µg/mL
81 | B3 | 0.442 µg/mL
82 | B4 | 0.00377 µg/mL
83 | B5 | 0.0769 µg/mL
84 | B6 | 0.00205 µg/mL
85 | B7 | > 10 µg/mL
86 | B8 | 0.0235 µg/mL
87 | B9 | 2.13 µg/mL
88 | B10 | 0.0428 µg/mL
89 | B11 | 4.31 µg/mL
90 | B12 | 0.001 µg/mL
91 | B13 | 0.00129 µg/mL
